Pooled drug test results. Numbers come from NIAID ChemDB, via PubChem.

Common to all: growth or infection tests; organism: Candida albicans

Blank or dashed fields: not listed here.

SMILES,read by,strain or isolate,cells,read-out,changes,tested at,value
Fc1ccc(OC(CCn2ccnc2)c2ccccc2)c(F)c1,,20 strains,,MFC90,,,128 µg/mL
Clc1cccc(Cl)c1COc1ccc(C(c2ccc(-c3ccccc3)cc2)n2ccnc2)cc1.O=[N+]([O-])O,,17 strains,,MIC90,,,≥256 µg/mL
COc1ccc(CC(c2ccc(OC)cc2)n2cnnc2)cc1,,28 strains,,EC50,,,<256 µg/mL
Cc1cc(-c2cc(C)n(CCO)n2)no1,,,,MFC,,,>200 µM
CCOC(=O)C1C(c2cc3ccccc3nc2Cl)C2=C(CCCC2=O)N(c2cccnc2)C1N,broth dilution,MTCC 227,,MIC99,,,250 µg/mL
COc1cc(C(=O)CO[C@H]2C[C@@]3(C)O[C@H]3C[C@@]3(C)CC[C@@](O)(C(C)C)[C@H]23)ccc1O,broth dilution,,,EC90,,,>50 µg/mL
Clc1ccc(COc2ccc(C(c3ccc4ccccc4c3)n3ccnc3)cc2)c(Cl)c1,,16 strains,,MIC90,,,≥256 µg/mL
COc1ccc(C(Cc2ccccc2F)n2ccnc2)cc1,,34 strains,,Geometric mean MIC,,,122 µg/mL
Cc1ccc2cccc(N=c3ssnc3Cl)c2n1,,ATCC 10231,,MFC99,,,32 µg/mL
Cc1ccc(-n2cc(C(C)(C)O)nn2)cc1C,broth dilution,URM 4820,,inhibition,,2048 µg/mL,0%
COc1ccc(C(Cc2ccccc2[N+](=O)[O-])n2ccnc2)cc1,,34 strains,,Geometric mean MIC,,,312 µg/mL
CC(C)CC(=O)C(=O)O,broth dilution,D 17,,MFC100,,,>72000 µg/mL
C[C@@H](c1nc(-c2ccc(C#N)cc2)cs1)[C@](O)(Cn1cnnc1)c1ccc(F)cc1F,,A28200,,MFC99,,,>16 µg/mL
CC(C)C[C@H](N)C(=O)O,broth dilution,ATCC 10231,,MFC100,,,>72000 µg/mL
CC1(C)O[C@H]2[C@H](O)[C@@H](N=[N+]=[N-])C=C(c3ccc(C=O)cc3)[C@H]2O1,broth dilution / turbidity,ATCC 10231,,inhibition,,250 µg/mL,100%
Clc1ccccc1C=Nc1cccc(Cn2ccnc2)c1,,27 strains,,Mean MIC,,,137.5 µg/mL
CCCCCCCCOc1ccc(N2CCN(c3ccc(C(=O)N[C@H]4CCCNC(=O)C5C[C@H](N)CN5C(=O)C(C(C)O)NC(=O)C(Cc5ccc(C)cc5)NC(=O)C5CCCN5C(=O)C(C(C)O)NC4=O)cc3)CC2)cc1,,ATCC 62376,,MIC,,,3.12 µg/mL
Cc1ccc2nc(Cl)c(C3C4=C(CCCC4=O)N(c4cccnc4)C(N)C3C#N)cc2c1,broth dilution,MTCC 227,,MIC99,,,1000 µg/mL
Cc1cc(-c2c(N=O)c(C)nn2CCO)no1,,,,MFC,,,66 µM
O=C(Nc1ccc(Cn2ccnc2)cc1)c1ccc(Cl)cc1Cl,,27 strains,,Mean MIC,,,83.33 µg/mL
CCCCn1nc(C)c(N=O)c1-c1cc(C)on1,,,,MFC,,,22 µM
COc1ccc(C(Cc2ccc(Cl)cc2)n2ccnc2)cc1,,34 strains,,Geometric mean MIC,,,15.74 µg/mL
N#CC1C(c2cc3ccccc3nc2Cl)C2=C(CCCC2=O)N(c2cccnc2)C1N,broth dilution,MTCC 227,,MIC99,,,500 µg/mL
CC(C)(O)c1cn(-c2ccccc2)nn1,broth dilution,URM 3719,,inhibition,,2048 µg/mL,0%
C=CCc1ccc(O)c(OC)c1,turbidity,3078,,MIC90,,,475 µg/mL
COc1cc(CNc2cccc(Cn3ccnc3)c2)cc(OC)c1OC,,27 strains,,Mean MIC,,,156 µg/mL
COc1ccc(C(Cc2cccc(-n3cccc3)c2)n2ccnc2)cc1,,34 strains,,Geometric mean MIC,,,156 µg/mL
CCC(c1ccc(OC)cc1)C(O)c1ccc(OC)cc1,,28 strains,,inhibition,,256 µg/mL,7%
COc1ccc([C@@H](Cc2ccc(Cl)cc2Cl)n2ccnc2)cc1,,34 strains,,Geometric mean MIC,,,3.5 µg/mL
Clc1cccc(Cl)c1COc1ccc(C(c2nccc3ccccc23)n2ccnc2)cc1,,16 strains,,MIC90,,,≥256 µg/mL
O[C@](Cn1cncn1)(Cn1cnc(/C=C/c2ccc(OCC(F)(F)C(F)F)cc2)n1)c1ccc(F)cc1F,,,,Mean MIC80,,,0.38 µg/mL
Clc1ccccc1COc1ccc(C(c2cccc3ccccc23)n2ccnc2)cc1.O=[N+]([O-])O,,17 strains,,MIC90,,,≥256 µg/mL
CCCCCCCC(=O)N[C@H]1CC2C(=O)NCCC[C@H](NC(=O)c3ccc(-c4ccc(-c5ccc(OCCCCC)cc5)cc4)cc3)C(=O)NC(C(C)O)C(=O)N3C[C@H](O)CC3C(=O)NC(CCc3ccc(O)cc3)C(=O)NC(C(C)O)C(=O)N2C1,,ATCC CCH442,,MIC,,,50 µg/mL
CCC(c1ccc(OC)cc1)C(c1ccc(OC)cc1)n1cncn1,,28 strains,,inhibition,,256 µg/mL,18%
COC(=O)C1C(c2cc3cc(C)ccc3nc2Cl)C2=C(CCCC2=O)N(c2cccnc2)C1N,broth dilution,MTCC 227,,MIC99,,,500 µg/mL
CCCCCCCCCCCC(=O)c1c(O)cc(O)c([C@@H]2C[C@H](c3ccc(O)cc3)Oc3cc(O)ccc32)c1O.CCCCCCCCCCCC(=O)c1c(O)cc(O)c([C@@H]2C[C@H](c3ccc(O)cc3)Oc3cc(O)ccc32)c1O,colony count,,VERO,EC50,,,6 µg/mL
CC1=C[C@H](OCC(=O)c2ccccc2)[C@@H]2[C@](C)(CC[C@@]2(O)C(C)C)CC1O,broth dilution,,,EC90,,,>50 µg/mL
COc1ccc2nc(Cl)c(C3C4=C(CCCC4=O)N(c4cccnc4)C(N)C3C#N)cc2c1,broth dilution,MTCC 227,,MIC99,,,1000 µg/mL
OC(Cn1cncn1)(Cn1cncn1)c1ccc(F)cc1F,,TIMM3315 (azole-resistant),,MIC80,,,128 µg/mL
O=C(Nc1ccccc1Cn1ccnc1)c1cccc(Cl)c1,,27 strains,,Mean MIC,,,156 µg/mL
Oc1ccc2c(c1)CCc1ccc(O)c(c1)Oc1ccc(cc1)CCc1cccc(O)c1O2,broth dilution,BWP17-DPP3-GFP,,MIC80,,,16 µg/mL
Clc1nssc1=Nc1cccc2ccccc12,,ATCC 10231,,MFC99,,,16 µg/mL
FC(F)(F)c1ccc(OC(CCn2ccnc2)c2ccccc2)cc1,,20 strains,,MFC50,,,64 µg/mL
O=[N+]([O-])c1cccc(Cn2ccnc2)c1,,27 strains,,Mean MIC,,,96.42 µg/mL
COc1ccc(C(Cc2ccccc2N)n2ccnc2)cc1,,34 strains,,Geometric mean MIC,,,69.26 µg/mL
CC(=O)N1CCN(c2ccc(OC[C@H]3CO[C@](Cn4ccnc4)(c4ccc(Cl)cc4Cl)O3)cc2)CC1,,20 strains,,MFC90,,,32 µg/mL
Clc1nssc1=Nc1ccc2ncccc2c1,,ATCC 10231,,MFC99,,,16 µg/mL
CCCCCOc1ccc(-c2ccc(-c3ccc(C(=O)N[C@H]4CCCNC(=O)[C@@H]5C[C@H](N)CN5C(=O)[C@H](Cc5ccc(O)cc5)NC(=O)C(CCc5ccc(O)cc5)NC(=O)[C@@H]5C[C@@H](O)CN5C(=O)[C@H]([C@@H](C)O)NC4=O)cc3)cc2)cc1,,ATCC CCH442,,MIC,,,0.39 µg/mL
CCn1nc(C)c(N=O)c1-c1cc(C)on1,,,,MFC,,,19 µM
CC(C)[C@]1(O)CC[C@]2(C)C=C[C@](C)(O)C[C@H](OCC(=O)c3ccccc3)[C@H]21,broth dilution,,,EC90,,,>50 µg/mL
CCC(c1ccc(OC)cc1)C(c1ccc(OC)cc1)n1ccnc1,,28 strains,,inhibition,,256 µg/mL,57%
Cc1ccc(C(C)C)cc1O,,ATCC 10231,,MLC,,,0.16–0.32 µg/mL
Clc1ccc(C(CCn2ccnc2)Oc2ccc(Cl)cc2Cl)cc1,,20 strains,,MFC90,,,4 µg/mL
Clc1ccc(C(c2nccc3ccccc23)n2ccnc2)cc1.O=[N+]([O-])O,,44 strains,,MIC90,,,64 µg/mL
CC(C)(O)c1cn(-c2cccc3ccccc23)nn1,broth dilution,URM 4260,,inhibition,,2048 µg/mL,0%
COc1ccc(C(Cc2ccc(Cl)cc2Cl)C(c2ccc(OC)cc2)n2cncn2)cc1,,28 strains,,EC50,,,>256 µg/mL
CCCCCOc1ccc(-c2ccc(-c3ccc(C(=O)N[C@H]4CCCNC(=O)C5C[C@H](NS(C)(=O)=O)CN5C(=O)C(C(C)O)NC(=O)C(CCc5ccc(O)cc5)NC(=O)C5C[C@@H](O)CN5C(=O)C(C(C)O)NC4=O)cc3)cc2)cc1,,ATCC CCH442,,MIC,,,0.2 µg/mL
CC[C@@H]([C@H](C)O)n1ncn(-c2ccc(N3CCN(c4ccc(OC[C@@H]5CO[C@@](Cn6cncn6)(c6ccc(F)cc6F)C5)cc4)CC3)cc2)c1=O,,30 isolates,,Geometric mean MIC,,,0.11 µg/mL
Clc1nssc1=Nc1cccc2cccnc12,,ATCC 10231,,MFC99,,,16 µg/mL
NCCCC[C@H](NC(=O)[C@H](Cc1c[nH]c2ccccc12)NC(=O)[C@H](CCCCN)NC(=O)[C@@H](N)CCCCN)C(=O)O,,ATCC 10231,,inhibition,,50 µM,0%
COc1ccc(C(Cc2ccc(Cl)cc2Cl)C(c2ccc(OC)cc2)n2cnnc2)cc1,,28 strains,,inhibition,,256 µg/mL,0%
Clc1ccccc1COc1ccc(C(c2ccc3ccccc3c2)n2ccnc2)cc1.O=[N+]([O-])O,,17 strains,,MIC90,,,≥256 µg/mL
CC(C)N=C(N)c1ccc2nc(-c3ccc4c(c3)Cc3cc(-c5nc6ccc(C(N)=NC(C)C)cc6[nH]5)ccc3-4)[nH]c2c1,,Isolate CA1548,,MFC,,,1.56 µg/mL
CC1=C[C@H](OCC(=O)c2ccccc2)[C@@H]2[C@](C)(CC[C@@]2(O)C(C)C)CC1=O,broth dilution,,,EC90,,,>50 µg/mL
Cc1cc(-c2c(N=O)c(C)nn2C)no1,,,,MFC,,,25 µM
CC(C)(O)c1cn(-c2ccc3ccccc3c2)nn1,broth dilution,URM 3716,,inhibition,,2048 µg/mL,0%
CCC(C)CC(C)CCCCCCCCC(=O)N[C@H]1C[C@@H](O)[C@H](NCCN)NC(=O)[C@@H]2[C@@H](O)CCN2C(=O)[C@H]([C@H](O)CCN)NC(=O)[C@H]([C@H](O)[C@@H](O)c2ccc(O)cc2)NC(=O)[C@@H]2C[C@@H](O)CN2C(=O)[C@H]([C@@H](C)O)NC1=O,,10 strains (fluconazole- itraconazole-susceptible),,MFC90,,,1 µg/mL
COc1ccc(C(Cc2cccc(Cl)c2)n2ccnc2)cc1,,34 strains,,Geometric mean MIC,,,137.3 µg/mL
Fc1ccc(COc2ccc(C(c3cccc4ccccc34)n3ccnc3)cc2)c(F)c1.O=[N+]([O-])O,,17 strains,,MIC90,,,≥256 µg/mL
C[C@H]1[C@H](O)[C@@H](C)/C=C/C=C/C=C/C=C/C=C/C=C/C=C/[C@H](O[C@@H]2O[C@H](C)[C@@H](O)[C@H](N)[C@@H]2O)C[C@@H]2O[C@](O)(C[C@@H](O)C[C@@H](O)CC[C@H](O)[C@@H](O)C[C@@H](O)CC(=O)O[C@H]1C)C[C@H](O)[C@H]2C(=O)O,broth dilution,ATCC 90028,,inhibition,cph1,1 µg/mL,100%
O=C(Nc1ccc(Cn2ccnc2)cc1)c1ccc(Br)cc1,,27 strains,,Mean MIC,,,144 µg/mL
N#CC1C(c2cc3cc(Cl)ccc3nc2Cl)C2=C(CCCC2=O)N(c2cccnc2)C1N,broth dilution,MTCC 227,,MIC99,,,250 µg/mL
O=C(Nc1ccccc1Cn1ccnc1)c1cc([N+](=O)[O-])cc([N+](=O)[O-])c1,,27 strains,,Mean MIC,,,11.23 µg/mL
Fc1ccc(C(CCn2ccnc2)Oc2ccc(Cl)cc2Cl)cc1,,20 strains,,MFC50,,,8 µg/mL
O=C(CCCCCCCCc1ccccc1)c1c(O)cc(O)c([C@@H]2C[C@@H](c3ccc(O)cc3)Oc3cc(O)ccc32)c1O,colony count,,VERO,EC50,,,>20 µg/mL

5 of the rows above, restated:

SMILES | read by | strain or isolate | cells | read-out | changes | tested at | value
CCC(c1ccc(OC)cc1)C(c1ccc(OC)cc1)n1cncn1 |  | 28 strains |  | inhibition |  | 256 µg/mL | 18%
CCC(c1ccc(OC)cc1)C(O)c1ccc(OC)cc1 |  | 28 strains |  | inhibition |  | 256 µg/mL | 7%
Clc1nssc1=Nc1cccc2ccccc12 |  | ATCC 10231 |  | MFC99 |  |  | 16 µg/mL
CC1=C[C@H](OCC(=O)c2ccccc2)[C@@H]2[C@](C)(CC[C@@]2(O)C(C)C)CC1=O | broth dilution |  |  | EC90 |  |  | >50 µg/mL
Cc1cc(-c2c(N=O)c(C)nn2C)no1 |  |  |  | MFC |  |  | 25 µM

Inhibition is in % at the dose shown (toxicity tests: loss of growth or viability). A number after MIC or MFC names an inhibition level or a share of isolates. Lines come from different laboratories, so protocols vary. ECn is the concentration giving n% inhibition of infection, replication or growth. Two numbers with a dash give a range or band.